Results of unrelated studies side by side (data: NIAID ChemDB).

Shared fields: tests in culture; agent: Mycobacterium tuberculosis

ECn: concentration that inhibits the pathogen or its effect by n%. Conditions beyond the fields shown may differ between rows. MIC50, MIC90 and the like: level of inhibition, or share of isolates inhibited. MIC bound comes from a single tested concentration. An empty or dashed field is not shown. Percent inhibition refers to the dose given; in toxicity tests it is the harm to the cells.

smiles,strain or isolate,read by,cell line,endpoint,dose,value
CC(C)CCO[C@@H]1C=C[C@H](O)[C@@H](CO)O1,H37Rv,BACTEC / radiometric,,MIC,,>50 µg/mL
O=C(Cc1csc2nc(-c3ccc(Br)cc3)cn12)N/N=C1\SCC(=O)N1c1ccc([N+](=O)[O-])cc1,H37Rv,,,inhibition,6.25 µg/mL,37%
Oc1ccc(CCN=C=S)cc1,W multidrug-resistant,visual reading,,MIC,,4 µg/mL
C[C@H]1COc2c(N3CCN(C)CC3)c(F)cc3c(=O)c(C(=O)O)cn1c23,001-013 (drug-resistant),,,MBC,,1.5 µg/mL
O=c1nc(SCc2ccncc2)c2[nH]cnc2[nH]1,H37Rv,,,MIC90,,>6.25 µg/mL
NNC(=O)c1ccncc1,H37Ra-lux,luminescence,,EC50,,0.11 µM
C[C@@H]([C@H](NC(=O)[C@H](Cc1ccc2ccccc2c1)NC(=O)N[C@@H](Cc1c[nH]c2ccccc12)C(=O)OCc1ccccc1)C(=O)NC[C@H]1C[C@@H](O)[C@H](n2ccc(=O)[nH]c2=O)O1)N(C)C(=O)CN,H37Rv,resazurin / fluorescence,,MIC99,,0.039 µM
C=C(C)C1CC=C(C)/C(=N/NC(=O)c2cccnc2)C1,H37Rv,BACTEC,,MIC,,0.4 µg/mL
CCOC(=O)c1c[nH]c(C(=O)OCC)c1-c1cc2c(-c3ccccc3)nc3ccccc3n2c1,H37Rv,,,inhibition,12.5 µg/mL,89%
C=CCN1C(=O)CS/C1=N\NC(=O)Cc1csc2nc(-c3ccc(Br)cc3)cn12,H37Rv,,,MIC,,>6.25 µg/mL
Cc1ccc2nc(N/N=C(/c3ccccc3)c3ccccn3)cc(C)c2c1,H37Rv,BACTEC,,MIC bound,,≤12.5 µg/mL
O=C(Nc1ccc(Cl)cc1Cl)c1cc(Br)ccc1O,CNCTC MY331/88,,,MIC,,4 µM
CCN(CC)CC(O)CNc1ccc(NCC2CO2)c2c1C(=O)c1ccccc1C2=O,H37Rv,BACTEC,,inhibition,12.5 µg/mL,100%
Cc1ccc(NC(=S)NNC(=O)Cc2csc3nc(-c4ccc(Br)cc4)cn23)cc1,H37Rv,,,MIC,,>6.25 µg/mL
CCCCC(=O)N/N=C/c1ccc(Cl)cc1,H37Rv,BACTEC,,MIC bound,,>12.5 µg/mL
Fc1ccc(-n2c(-c3ccncc3)n[nH]c2=S)cc1,H37Rv,,,MIC,,>6.25 µg/mL
CC1=N/C(=C\c2ccc([N+](=O)[O-])s2)C(=O)O1,H37Rv,BACTEC,,inhibition,12.5 µg/mL,-3%
CO[C@H]1/C=C/O[C@@]2(C)Oc3c(C)c(O)c4c(=O)c(c5oc6cc(N(C)CCc7ccccn7)cc(=O)c6nc5c4c3=C2O)NC(=O)/C(C)=C\C=C\[C@H](C)[C@H](O)[C@@H](C)[C@@H](O)[C@@H](C)[C@H](OC(C)=O)[C@@H]1C,H37Rv,,,MIC,,0.017 µg/mL
O=C(Nc1ccc(Cl)c(Cl)c1)c1cc(F)ccc1O,CNCTC MY331/88,,,MIC,,4 µM
C[C@@H]1[C@H]2C[C@@H](C[C@H]1NCCNCC1C[C@@H]3C[C@H](C1)C3(C)C)C2(C)C,H37Rv,,,MIC,,1 µM
O=C(CSc1nnc(-c2ccncc2)n1Cc1ccccc1)c1ccccc1,H37Rv,,,MIC,,>6.25 µg/mL
CO[C@H]1/C=C/O[C@@]2(C)Oc3c(C)c(O)c4c(=O)c(c5oc6cc(N7CCNCC7)cc(=O)c6nc5c4c3=C2O)NC(=O)/C(C)=C\C=C\[C@H](C)[C@H](O)[C@@H](C)[C@@H](O)[C@@H](C)[C@H](OC(C)=O)[C@@H]1C,H37Rv,,,MIC,,0.6 µg/mL
O=C(Nc1ccc(Cl)c(Cl)c1)c1cc([N+](=O)[O-])ccc1O,CNCTC MY331/88,,,MIC,,31 µM
CO[C@@H]1C(C(CCO)NC2CC2)OC2OC(C)(C)OC21,H37Rv,,,MIC,,50 µg/mL
CCC(C)[C@]1(O)O[C@@H]2C[C@]3(C)OC(=CC3=O)/C(C)=C\[C@@H]3OC(=O)[C@]1(C)[C@@H]32,H37Rv,BACTEC,,inhibition,12.5 µg/mL,28%
C[C@@H]([C@H](NC(=O)[C@H](CC1CCCCC1)NC(=O)N[C@@H](Cc1c[nH]c2ccccc12)C(=O)OCc1ccccc1)C(=O)NC[C@H]1C[C@@H](O)[C@H](n2ccc(=O)[nH]c2=O)O1)N(C)C(=O)CN,H37Rv,resazurin / fluorescence,,MIC50,,0.009 µM
Cc1ccc2c(c1)NC(c1ccc(C(=O)O)cc1)c1cccn1-2,H37Rv,BACTEC,,MIC bound,,>12.5 µg/mL
O=C(CSc1nnc(-c2ccncc2)n1-c1ccc(F)cc1)c1ccccc1,H37Rv,,,MIC,,>6.25 µg/mL
CCCCCCOC(=O)[C@H](Cc1c[nH]c2ccccc12)NC(=O)N[C@@H](Cc1ccc2ccccc2c1)C(=O)N[C@H](C(=O)NC[C@H]1C[C@@H](O)[C@H](n2ccc(=O)[nH]c2=O)O1)[C@H](C)N(C)C(=O)CN,H37Rv,resazurin / fluorescence,,MIC99,,0.076 µM
CC(CNCC(c1ccccc1)c1ccccc1)NC[C@@H]1CC[C@H]2C[C@@H]1C2(C)C,H37Rv,,,MIC,,0.5 µM
CCCN1C(=O)CS/C1=N\NC(=O)Cc1csc2nc(-c3ccc(Br)cc3)cn12,H37Rv,,,inhibition,6.25 µg/mL,18%
CO[C@H]1/C=C/O[C@@]2(C)Oc3c(C)c(O)c4c(=O)c(c5oc6cc(N(C)CC(C)C)cc(=O)c6nc5c4c3=C2O)NC(=O)/C(C)=C\C=C\[C@H](C)[C@H](O)[C@@H](C)[C@@H](O)[C@@H](C)[C@H](OC(C)=O)[C@@H]1C,H37Rv,,,MIC,,0.008 µg/mL
C[C@@H]([C@H](NC(=O)[C@H](CC1CCCCC1)NC(=O)N[C@@H](Cc1c[nH]c2ccccc12)C(=O)OCC(C)(C)C)C(=O)NC[C@H]1C[C@@H](O)[C@H](n2ccc(=O)[nH]c2=O)O1)N(C)C(=O)CN,H37Rv,resazurin / fluorescence,,MIC99,,0.0156 µM
CCCCCCCCCCCCNC(CCO)C1OC2OC(C)(C)OC2[C@H]1OCc1ccccc1,H37Rv,,,MIC,,12.5 µg/mL
CSc1nc2c(c(N(C)C)n1)C(O)n1c(nc3ccccc31)S2,H37Rv,resazurin,,MIC bound,,>6.25 µg/mL
CCCCCCCCCCCCCCCCCCNC(CCO)[C@H]1OC2OC(C)(C)OC2C2OC(C)(C)OC21,H37Rv,,,MIC,,6.25 µg/mL
Cc1c[nH]c(C(=O)NN)c1-c1ccc2c(-c3ccccc3)nc3ccccc3n12,H37Rv,,,inhibition,12.5 µg/mL,86%
O=C(Cc1csc2nc(-c3ccc(Br)cc3)cn12)NNC(=S)Nc1ccccc1,H37Rv,,,MIC,,>6.25 µg/mL
CC(C)=O.CC(C)C1(NC(=O)C2C=C3c4cccc5[nH]cc(c45)CC3N(C)C2)OC2(O)C3CCCN3C(=O)C(Cc3ccccc3)N2C1=O,H37Rv,BACTEC,,MIC bound,,>12.8 µg/mL
C=CCNC(=S)NNC(=O)Cc1csc2nc(-c3ccc(Br)cc3)cn12,H37Rv,,,MIC,,>6.25 µg/mL
O=C(Nc1cccc([N+](=O)[O-])c1)c1cc([N+](=O)[O-])ccc1O,CNCTC MY331/88,,,MIC,,31 µM
C[C@H](NCCNC[C@@H]1CC[C@H]2C[C@@H]1C2(C)C)C1CCCCC1,H37Rv,,,MIC,,1 µM
Fc1cc(F)c2c(c1)Nc1cc(F)cc(F)c1S2,H37Rv,BACTEC,,MIC bound,,>12.5 µg/mL
CCCCCCCCSc1nc(Cl)nc2nc[nH]c12,H37Rv,,,MIC90,,>6.25 µg/mL
CSc1nc(N)c2c(n1)N(C)C=NS2(=O)=O,H37Rv,BACTEC,,inhibition,12.5 µg/mL,-1%
CO[C@H]1/C=C/O[C@@]2(C)Oc3c(C)c(O)c4c(=O)c(c5oc6cc(N7CCN(CC(C)C)CC7)cc(=O)c6nc5c4c3=C2O)NC(=O)/C(C)=C\C=C\[C@H](C)[C@H](O)[C@@H](C)[C@@H](O)[C@@H](C)[C@H](OC(C)=O)[C@@H]1C,H37Rv,,,MIC,,0.017 µg/mL
O=C(Nc1ccc(Br)cc1)c1cnccn1,TAC-R,,,MIC,,>12.5 µg/mL
CC(CNC[C@@H]1CC[C@H]2C[C@@H]1C2(C)C)NC[C@@H]1CC[C@H]2C[C@@H]1C2(C)C,H37Rv,,,MIC,,0.2 µM
Clc1nc(Sc2ncc[nH]2)c2[nH]cnc2n1,H37Rv,,,MIC90,,>6.25 µg/mL
CO[C@H]1/C=C/O[C@@]2(C)Oc3c(C)c(O)c4c(=O)c(c5oc6cc(N7CCCN(C)CC7)cc(=O)c6nc5c4c3=C2O)NC(=O)/C(C)=C\C=C\[C@H](C)[C@H](O)[C@@H](C)[C@@H](O)[C@@H](C)[C@H](OC(C)=O)[C@@H]1C,H37Rv,,,MIC,,0.15 µg/mL
CCSc1nc(Cl)nc2nc[nH]c12,H37Rv,,,inhibition,6.25 µg/mL,44%
CC1(C)[C@@H]2CC[C@@]1(C)[C@@H](NCCNCC(c1ccccc1)c1ccccc1)C2,H37Rv,,,MIC,,6 µM
FC(F)(F)c1ccc2c(c1)N(CCCCl)c1ccccc1S2,H37Rv,BACTEC,,MIC bound,,≤12.5 µg/mL
O=C(Cc1csc2nc(-c3ccc(Br)cc3)cn12)NNC(=S)Nc1ccc(Cl)cc1,H37Rv,,,inhibition,6.25 µg/mL,14%
Cc1cccc(C)c1Sc1ncnc2nc[nH]c12,H37Rv,,,MIC90,,>6.25 µg/mL
CCC(C)N1CCN(c2cc(=O)c3nc4c(oc3c2)c2c(=O)c3c(O)c(C)c5c(c34)=C(O)[C@@](C)(O/C=C/[C@H](OC)[C@@H](C)[C@@H](OC(C)=O)[C@H](C)[C@H](O)[C@H](C)[C@@H](O)[C@@H](C)/C=C/C=C(/C)C(=O)N2)O5)CC1,H37Rv,,,MIC,,0.017 µg/mL
O=C1C/C(=C\c2ccc(Cl)cc2Cl)C(=O)N1,H37Rv,BACTEC,,inhibition,12.5 µg/mL,33%
C=CCCN1CCN(c2cc(=O)c3nc4c(oc3c2)c2c(=O)c3c(O)c(C)c5c(c34)=C(O)[C@@](C)(O/C=C/[C@H](OC)[C@@H](C)[C@@H](OC(C)=O)[C@H](C)[C@H](O)[C@H](C)[C@@H](O)[C@@H](C)/C=C/C=C(/C)C(=O)N2)O5)CC1,H37Rv,,,MIC,,0.017 µg/mL
CC1=NN(c2ccccc2)C(=O)C1=Nc1c(C)[nH]n(-c2ccccc2)c1=O,H37Rv,BACTEC,,MIC bound,,>12.8 µg/mL
CC(C)=CCC/C(C)=C/CNCCNC(c1ccccc1)c1ccccc1,H37Rv,,,MIC,,1 µM
CCCCCCCCCCCCCCCCCCC1OC2OC(C)(C)OC2[C@@H]1OCc1ccccc1,H37Ra,,,MIC,,25 µg/mL
CCCCCC(/C=N/NC(=O)c1ccc[n+](C)c1)=C\c1ccccc1.Cc1ccc(S(=O)(=O)[O-])cc1,H37Rv,BACTEC,,MIC,,≥12.5 µg/mL
C[C@@H]([C@H](NC(=O)[C@H](Cc1ccc2ccccc2c1)NC(=O)N[C@@H](Cc1c[nH]c2ccccc12)C(=O)NCc1ccccc1)C(=O)NC[C@H]1C[C@@H](O)[C@H](n2ccc(=O)[nH]c2=O)O1)N(C)C(=O)CN,H37Rv,resazurin / fluorescence,,MIC50,,0.099 µM
NNC(=O)Cc1cccnc1,H37Rv,BACTEC,,inhibition,12.5 µg/mL,6%
O=C(Nc1cccc(F)c1)c1cc(Br)ccc1O,CNCTC MY331/88,,,MIC,,8 µM
CCOC(=O)c1[nH]cc(C)c1-c1ccc2c(-c3ccccc3)nc3ccccc3n12,H37Rv,,,MIC,,<12.5 µg/mL
Cc1cccc(Sc2ncccn2)c1,H37Rv,,,MIC90,,>6.25 µg/mL
CCCCCCCCCCCCNC(CCO)C1OC2OC(C)(C)OC2[C@@H]1OCc1ccccc1,H37Rv,,,MIC,,3.12 µg/mL
CCN(CC)C(=S)S[Se](SC(=S)N(CC)CC)(SC(=S)N(CC)CC)SC(=S)N(CC)CC,H37Rv,,VERO,MIC,,0.8 µg/mL
CCCCN1C(=O)CS/C1=N\NC(=O)Cc1csc2nc(-c3ccc(Br)cc3)cn12,H37Rv,,,inhibition,6.25 µg/mL,0%
Cc1nc(Nc2ccc(Cl)c(Cl)c2)sc1C(/C=C/c1ccc2c(c1)OCO2)=N/Nc1ccc([N+](=O)[O-])cc1[N+](=O)[O-],H37Rv,resazurin,,inhibition,6.25 µg/mL,98%
O=C(Nc1ccc(Cl)cc1)c1ccccc1O,CNCTC MY331/88,,,MIC,,31 µM
O=C(Nc1ncc([N+](=O)[O-])s1)c1cccnc1,H37Rv,BACTEC,,MIC bound,,≤12.5 µg/mL
CO[C@H]1/C=C/O[C@@]2(C)Oc3c(C)c(O)c4c(=O)c(c5oc6cc(N7CCOCC7)cc(=O)c6nc5c4c3=C2O)NC(=O)/C(C)=C\C=C\[C@H](C)[C@H](O)[C@@H](C)[C@@H](O)[C@@H](C)[C@H](OC(C)=O)[C@@H]1C,H37Rv,,,MIC,,0.008 µg/mL

Repeating the first 9 entries:

smiles	strain or isolate	read by	cell line	endpoint	dose	value
CC(C)CCO[C@@H]1C=C[C@H](O)[C@@H](CO)O1	H37Rv	BACTEC / radiometric		MIC		>50 µg/mL
O=C(Cc1csc2nc(-c3ccc(Br)cc3)cn12)N/N=C1\SCC(=O)N1c1ccc([N+](=O)[O-])cc1	H37Rv			inhibition	6.25 µg/mL	37%
Oc1ccc(CCN=C=S)cc1	W multidrug-resistant	visual reading		MIC		4 µg/mL
C[C@H]1COc2c(N3CCN(C)CC3)c(F)cc3c(=O)c(C(=O)O)cn1c23	001-013 (drug-resistant)			MBC		1.5 µg/mL
O=c1nc(SCc2ccncc2)c2[nH]cnc2[nH]1	H37Rv			MIC90		>6.25 µg/mL
NNC(=O)c1ccncc1	H37Ra-lux	luminescence		EC50		0.11 µM
C[C@@H]([C@H](NC(=O)[C@H](Cc1ccc2ccccc2c1)NC(=O)N[C@@H](Cc1c[nH]c2ccccc12)C(=O)OCc1ccccc1)C(=O)NC[C@H]1C[C@@H](O)[C@H](n2ccc(=O)[nH]c2=O)O1)N(C)C(=O)CN	H37Rv	resazurin / fluorescence		MIC99		0.039 µM
C=C(C)C1CC=C(C)/C(=N/NC(=O)c2cccnc2)C1	H37Rv	BACTEC		MIC		0.4 µg/mL
CCOC(=O)c1c[nH]c(C(=O)OCC)c1-c1cc2c(-c3ccccc3)nc3ccccc3n2c1	H37Rv			inhibition	12.5 µg/mL	89%